Several values for one entry are separate records, joined by “and”; a condition that tells them apart may be missing. Equal values may be shown once. Results filed as inconclusive are left out.

The record followed here is PubChem BioAssay AID298 (DTP/NCI, 2004).

This test has as its system MX-1 breast xenograft, intrarenal, nude mice, tumor weight. Put plainly: NCI In Vivo Anticancer Drug Screen. Data for tumor model Human Mammary Carcinoma MX-1 Xenograft (intrarenal inoculation) in NU/NU BALB/C (nude) mice. To be noted: endpoint: mean tumor weight change, schedule: Q04DX003 (ip), vehicle: saline, higher = larger tumour. On the procedure:
The antitumor activity of compounds was measured in mice bearing transplantable tumors. Survival or tumor size were measured and the results are expressed as the measurement made in the treated group (T) divided by the measurement made in the vehicle treated control group (C). The tumor model used in this assay is Human Mammary Carcinoma MX-1 Xenograft (intrarenal inoculation) in NU/NU BALB/C (nude) mice

Turning to `O=P1(N(CCCl)CCCl)NC(SCCS(=O)(=O)O)CCO1` (centres undefined), the T/C is, setting by setting: (dose: 37.5 mg/kg/injection) 1 % of control; (dose: 75.0 mg/kg/injection) -81 % of control; (dose: 150.0 mg/kg/injection) -100 % of control and -83 % of control; (dose: 300.0 mg/kg/injection) -95 % of control.
